Measurements reported in PubChem BioAssay AID1259414 (Drosophila RNAi Screening Center, 2018).
In all, the deposit lists about 24,000 reagents; below is an unselected part of those that have a named target and a result. In the full data, about 1,210 (5%) got an active call. 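Inactive calls also include excluded dsRNAs with several or no targets, genes unexpressed in JW18, and well A1, regardless of score.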 A plus sign joins genes that one reagent is predicted to hit.

Screen: 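Host factors increasing or decreasing Wolbachia levels in cultured fly cells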 (primary screen)
System: Drosophila JW18 cells infected with Wolbachia
Reagents: long dsRNA against Drosophila genes, 0.25 µg dsRNA per well of a 384-well plate
Time to read-out: 5 days
Challenge: cells persistently infected with Wolbachia before knock-down; no added drug
Measured: 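Imaged fluorescence in situ signal for Wolbachia 23S rRNA per DAPI-counted host cell, given as a robust z-score within each plate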
Reading the numbers: Wolbachia per cell robust z: higher = more Wolbachia per host cell than the plate typical
Call rule: 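Hit when robust z is 1.5 or more, or -1.5 or less, in at least two of three replicates; excludes dsRNAs with several or no targets, genes not expressed in JW18 and well A1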

gene	amplicon	Wolbachia per cell robust z, rep 1	Wolbachia per cell robust z, rep 2	Wolbachia per cell robust z, rep 3	outcome
cbt (cabut)	DRSC00655	-0.751	0.71	-1.92	inactive
cbt (cabut)	DRSC26117	-0.793	-0.482	-0.818	inactive
Dtd (D-aminoacyl-tRNA deacylase)	DRSC15362	-1.42	-5.55	-1.49	inactive
CG31601	DRSC03678	1.47	0.622	-1.35	inactive
CG7137	DRSC07017	0.219	0.306	-0.732	inactive
CG15536	DRSC15072	-3.13	-1.39	-0.00167	inactive
CG15536	DRSC22844	0.359	-0.663	-0.155	inactive
CG15536	DRSC27663	-0.636	-2.04	0.452	inactive
dock (dreadlocks)	DRSC00812	1.56	1.25	0.441	inactive
dock (dreadlocks)	DRSC27610	0.216	0.0204	0.724	inactive
CG9986	DRSC16586	-0.958	0.565	-6.62	inactive
CG9986	DRSC29323	0.0343	-4.57	-0.385	inactive
CG18095	DRSC01948	-0.622	-1.73	-1.12	inactive
bowl	DRSC00805	-2.06	0.183	-1.21	inactive
bowl	DRSC28379	1.78	-1.53	0.456	inactive
Ost48 (Oligosaccharyltransferase 48kD subunit)	DRSC18693	0.676	1.22	0.527	inactive
CG6282	DRSC10616	-0.6	-4.24	-0.165	inactive
CG6282	DRSC29524	-0.816	0.487	0.915	inactive
CG12860	DRSC06200	0.0588	0.674	-2.17	inactive
CG12860	DRSC26264	0.216	-0.579	0.9	inactive
Ilp2 (Insulin-like peptide 2)	DRSC10968	-0.0609	0.231	1.22	inactive
Ilp2 (Insulin-like peptide 2)	DRSC29688	-0.484	1.39	-0.402	inactive
CG6527	DRSC10659	0.246	-0.23	-1.22	inactive
CG12655	DRSC20678	2.48	2.65	1.19	inactive
Lap1	DRSC07454	-1.47	-0.617	0.285	inactive
CG31697	DRSC22273	-1.7	0.268	-0.804	inactive
CG3662	DRSC00626	0.755	0.0768	-0.455	inactive
Rab9D + Rab9Fa + Rab9E	DRSC19853	-1.77	-0.611	-1.13	inactive

Laid out differently: entries from further up.
CG31697 [DRSC22273] → Wolbachia per cell robust z, rep 1 = -1.7; Wolbachia per cell robust z, rep 2 = 0.268; Wolbachia per cell robust z, rep 3 = -0.804; outcome = inactive
CG3662 [DRSC00626] → Wolbachia per cell robust z, rep 1 = 0.755; Wolbachia per cell robust z, rep 2 = 0.0768; Wolbachia per cell robust z, rep 3 = -0.455; outcome = inactive
Rab9D + Rab9Fa + Rab9E [DRSC19853] → Wolbachia per cell robust z, rep 1 = -1.77; Wolbachia per cell robust z, rep 2 = -0.611; Wolbachia per cell robust z, rep 3 = -1.13; outcome = inactive

Further reagents:
gene	amplicon	Wolbachia per cell robust z, rep 1	Wolbachia per cell robust z, rep 2	Wolbachia per cell robust z, rep 3	outcome
rept (reptin)	DRSC11388	-0.0442	1.18	-0.613	inactive
rept (reptin)	DRSC27183	-2.3	1.1	0.836	inactive
CG8854	DRSC07288	0.481	-0.4	0.733	inactive
CG8854	DRSC24639	0.735	0.967	0.327	inactive
CG7692	DRSC10902	-0.994	0.487	0.207	inactive
CG7692	DRSC24040	-0.388	-2.77	-1.31	inactive
CG14641	DRSC12227	0.983	-2.45	1.73	inactive
CG14641	DRSC26839	0.827	1.98	3.87	active
CG9664	DRSC00725	-1.19	-3.95	0.45	inactive
Rab4 + CG42239	DRSC05667	1.01	0.2	0.432	inactive
CG10516	DRSC09738	1.03	-0.0555	0.594	inactive
spz5 (spatzle 5)	DRSC08645	0.289	0.171	-5.34	inactive
CG14857	DRSC14981	-0.57	-0.423	-1.79	inactive
Cyp305a1 (Cytochrome P450 305a1)	DRSC11126	0.0771	-0.555	-0.538	inactive
Muc11A (Mucin 11A)	DRSC19498	0.333	0.505	1.24	inactive
Muc11A (Mucin 11A)	DRSC29295	-0.685	0.363	0.287	inactive
Hacl (2-hydroxyacyl-CoA lyase)	DRSC06061	-0.602	1.02	0.167	inactive
polyph (polyphemus)	DRSC06254	-0.245	-0.756	0.33	inactive
rho-6 (rhomboid-6)	DRSC02588	-4.67	-0.887	-0.307	inactive
rho-6 (rhomboid-6)	DRSC29070	-0.675	-1.73	-0.98	inactive
CG17192	DRSC15186	0.473	1.21	1.48	inactive
CG17192	DRSC24691	0.251	0.194	-0.889	inactive
Tpst (Tyrosylprotein sulfotransferase)	DRSC18989	0.512	0.369	-0.885	inactive
Tpst (Tyrosylprotein sulfotransferase)	DRSC19696	-1.9	-1.02	-0.0143	inactive
Tpst (Tyrosylprotein sulfotransferase)	DRSC19723	0.755	0.763	-0.61	inactive
Tpst (Tyrosylprotein sulfotransferase)	DRSC24990	-2.68	-7.36	-11.8	inactive
Tpst (Tyrosylprotein sulfotransferase)	DRSC25122	0.837	0.358	-2.74	inactive
Tpst (Tyrosylprotein sulfotransferase)	DRSC25422	0.0205	0.306	-1.35	inactive
Gen (XPG-like endonuclease)	DRSC09679	-0.646	0.739	-0.327	inactive
scaRNA:MeU5-C46 (small Cajal body-specific RNA : MeU5-C46)	DRSC36572	-3.55	0.669	1.74	inactive
Br140 (Bromodomain-containing protein, 140kD)	DRSC06755	1.39	1.79	1.21	inactive
CG1943	DRSC12576	0.122	0.733	-3.05	inactive
mt:lrRNA (mitochondrial large ribosomal RNA)	DRSC40582	-2.14	0.34	0.704	inactive
CG8673	DRSC03105	0.355	0.395	1.08	inactive
GstE4 (Glutathione S transferase E4)	DRSC06674	-4.42	-1.57	-0.0802	inactive
GstE4 (Glutathione S transferase E4)	DRSC24213	-0.295	0.18	-0.0308	inactive
CG3588	DRSC18473	-0.682	-3.14	-0.55	inactive
CG3588	DRSC24598	-0.324	0.217	1.68	inactive
CG14011	DRSC02343	0.617	0.719	0.379	inactive
CG14011	DRSC27954	0.611	-0.974	0.649	inactive
